Series [1] relates to C=C(OP(=O)(O)O)C(=O)O. As to the kind of experiment: purified protein. The settings on record: E4P 232 μM, Mn2+ (MnSO4 100 μM), 50 mM BTP pH 6.8, 25 °C, dimer in solution.
The subject of series [2] is O=C[C@H](O)[C@H](O)COP(=O)(O)O. Briefly: purified protein. The settings on record: PEP 126 μM, Mn2+ (MnSO4 100 μM), 50 mM BTP pH 6.8, 25 °C, dimer in solution.

In the case of “NmeDAH7PS (Neisseria meningitidis 3-deoxy-D-arabino-heptulosonate 7-phosphate synthase) (Neisseria meningitidis MC58; R126S)”, in series [1], the Km was found to be 25 ± 1 µM, the turnover number (kcat) was 12.6 ± 0.1 s⁻¹ and the kcat/Km came to 500000 M⁻¹ s⁻¹. In series [2], the Michaelis constant (Km) was found to be 13.4 ± 0.3 µM, the kcat stood at 12.6 ± 0.1 s⁻¹ and the kcat/Km stood at 900000 M⁻¹ s⁻¹.

A word on the Km: it is the concentration of substrate that gives half-maximal velocity. In general, kcat refers to the number of substrate molecules converted per active site and unit of time at saturation. The kcat/Km is the second-order rate constant that governs catalysis at low substrate concentration.

The values above are taken from publication PMC4735112, “The Functional Unit of Neisseria meningitidis 3-Deoxy-ᴅ-Arabino-Heptulosonate 7-Phosphate Synthase Is Dimeric” (PLoS ONE, 2016).
